PMC9822940, “Antiplasmodial activity, structure–activity relationship and studies on the action of novel benzimidazole derivatives” (Scientific Reports, 2023)

System: P. falciparum HB3 strain
Assay: Antiplasmodial activity against P. falciparum HB3 strain in culture
Assay type: cell-based, Plasmodium falciparum
Details: Vero CC50 versus HB3 IC50
Procedure: In vitro activity of BZ. All BZ derivatives were tested at 10 μM against the HB3 strain of Pf, and for those compounds with a percentage of growth inhibition (% GI) higher than 50%, the IC50 values were determined. In addition, their cytotoxicity on epithelial Vero cell cultures was evaluated to calculate their selectivity indexes (SI), Table 1. An index of 10 or above is expected for a lead compound.
The chloroquine-sensitive […] and chloroquine-resistance 7G8 strain […] of P. falciparum were used throughout. Infected erythrocytes were kept in culture using the protocol established by Haynes et al.[44], basically utilizing human O^+ erythrocytes kept in an RPMI medium supplemented with glutamine and 10% human serum incubated in an atmosphere of 90% N2, 5% O2 and 5% CO2.

| SMILES | SI (selectivity index) |
| --- | --- |
| Cc1ccc2[nH]c(NC(=O)c3ccc(-c4ccccc4)cn3)nc2c1 [BZ 7] | 2.5 |
| Cc1ccc2[nH]c(NC(=O)c3ccc4ccccc4n3)nc2c1 [BZ 9] | 4.5 |
| CCCCc1ccc(C(=O)Nc2nc3cc(Cl)ccc3[nH]2)nc1 [BZ 17] | 1.0 |
| COc1ccc2[nH]c(NC(=O)c3ccc(-c4ccccc4)cn3)nc2c1 [BZ 28] | 3.3 |
| O=C(Nc1nc2cc([N+](=O)[O-])ccc2[nH]1)c1ccccn1 [BZ 29] | 2.7 |
| CCCCCCCCC(NC(=O)OC(C)(C)C)C(=O)Nc1ccc2[nH]c(NC(=O)c3ccccn3)nc2c1 (stereo not drawn) [BZ 31] | 3.16 |
| CCCCCCCCC(N)C(=O)Nc1ccc2[nH]c(NC(=O)c3ccccn3)nc2c1 (stereo not drawn) [BZ 32] | 2.43 |
| CCCCc1ccc(C(=O)Nc2nc3cc(C)c(C)cc3[nH]2)nc1 [BZ 34] | 1.0 |
| Cc1cc2nc(NC(=O)c3ccc(-c4ccccc4)cn3)[nH]c2cc1C [BZ 35] | 1.3 |
